PubChem BioAssay AID504761 | Drosophila RNAi Screening Center – 2011
The deposit covers about 22,000 reagents; this is an unselected part of those with a known target gene and a result. In the full data, 116 (0.52%) got an active call. 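Calls depend on retest data that are not deposited; infection was ranked per plate without normalising between plates; the unit of the infection score is not given.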 A number with no mark means an inactive call. A plus sign joins genes that one reagent is predicted to hit. Not all columns of the deposit are shown. The record does not give: the amount of reagent, the time to read-out.

Purpose: 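Fly genes whose silencing reduces dengue virus type 2 infection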 (primary screen)
System: D.Mel-2 cells from Drosophila
Reagent: long dsRNA against Drosophila genes
Conditions: infection with dengue virus type 2; dose and infection time not stated
Detection: 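Cells stained for dengue envelope protein and imaged; percent of infected cells per well on duplicate plates, ranked by infection, with stained nuclei counted for cell number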
Scale: infection score: higher = more virus-infected cells
Rule for the call: 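Very low infection ranking in both replicate wells (chance probability at most 0.065), then a retest showing infection dropped 1.5-fold or more at p below 0.05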
Meaning of the calls: active = confirmed: knock-down lowers infection; inactive = not picked or not confirmed

Against CG32643 [DRSC18962], the entry reads infection score, replicate 1 = 1.54.
Tsp33B (Tetraspanin 33B) [DRSC02418] showed infection score, replicate 1 = 3.57.
With knock-down of Tsp33B (Tetraspanin 33B) [DRSC28982], the record shows infection score, replicate 1 = 13.8.
Against CG31664 [DRSC22084] the deposit lists infection score, replicate 1 = 5.24.
Silencing of mRpL16 (mitochondrial ribosomal protein L16) [DRSC18550] resulted in: infection score, replicate 1 = 9.8.
Against mRpL16 (mitochondrial ribosomal protein L16) [DRSC29510], the values are infection score, replicate 1 = 10.2.
Against Mst57Da (Male-specific RNA 57Da) [DRSC16744], the values are infection score, replicate 1 = 1.74.
Silencing of Awh (Arrowhead) [DRSC08140] gave: infection score, replicate 1 = 0.56.
Against Myc [DRSC23360], the entry reads infection score, replicate 1 = 0.89.
Nep7 (Neprilysin 7) [DRSC15830] showed infection score, replicate 1 = 5.3.
Nep7 (Neprilysin 7) [DRSC26582] showed infection score, replicate 1 = 1.34.
After knock-down of Scox (Synthesis of cytochrome c oxidase) [DRSC03117], the record shows infection score, replicate 1 = 6.16.
Knock-down of Scox (Synthesis of cytochrome c oxidase) [DRSC26366] came out at: infection score, replicate 1 = 4.89.

A stretch from the list above:
Nep7 (Neprilysin 7) [DRSC15830] — infection score, replicate 1 = 5.3
Nep7 (Neprilysin 7) [DRSC26582] — infection score, replicate 1 = 1.34

Next records follow:
For h-cup + Rbp [DRSC14990], the values are infection score, replicate 1 = 3.85.
Depletion of Ttc26 (Tetratricopeptide repeat domain 26) [DRSC15591] came out at: infection score, replicate 1 = 3.19.
Depletion of Ttc26 (Tetratricopeptide repeat domain 26) [DRSC27237] gave: infection score, replicate 1 = 3.97.
Depletion of Nup214 (Nucleoporin 214kD) [DRSC04421] resulted in: infection score, replicate 1 = 10.1.
For AdipoR (Adiponectin receptor) [DRSC15767] the deposit lists infection score, replicate 1 = 2.28.
Depletion of crol (crooked legs) [DRSC03514] resulted in: infection score, replicate 1 = 15.5.
crol (crooked legs) [DRSC21348] scored infection score, replicate 1 = 9.27.
Depletion of crol (crooked legs) [DRSC26800] gave: infection score, replicate 1 = 5.22.
